Results of unrelated studies side by side (data: NIAID ChemDB).

Common to all: whole-cell or culture tests; organism: Candida parapsilosis; measure: MIC80

MIC50, MIC90 and the like: level of inhibition, or share of isolates inhibited.

{"compound": "CCCCN(Cc1cn(Cc2ccc(C)cc2)nn1)CC(O)(Cn1cncn1)c1ccc(F)cc1F", "result": "<0.125 µg/mL"}
{"compound": "CN(C)c1ccc(/C=C2\\SC(=O)N(CC(O)(Cn3nccn3)c3ccc(F)cc3F)C2=O)cc1", "strain": "CNCYP51", "result": "8.24 µg/mL"}
{"compound": "CN(CC(=O)Nc1ccc(Br)cc1)CC(O)(Cn1cncn1)c1ccc(F)cc1F", "result": "4 µg/mL"}
{"compound": "CCCCN(Cc1cn(Cc2ccccc2C#N)nn1)CC(O)(Cn1cncn1)c1ccc(F)cc1F", "result": "4 µg/mL"}
{"compound": "Cc1ccc(NC(=O)CN(C)CC(O)(Cn2cncn2)c2ccc(F)cc2F)c(C)c1", "result": "16 µg/mL"}
{"compound": "CCCCN(Cc1cn(Cc2cccc(C#N)c2)nn1)CC(O)(Cn1cncn1)c1ccc(F)cc1F", "result": "16 µg/mL"}
{"compound": "COc1cccc(NC(=O)CN(C)CC(O)(Cn2cncn2)c2ccc(F)cc2F)c1", "result": "4 µg/mL"}
{"compound": "CCCCN(Cc1cn(Cc2ccccc2Br)nn1)CC(O)(Cn1cncn1)c1ccc(F)cc1F", "result": "8 µg/mL"}
{"compound": "CN(CC(=O)Nc1ccc(F)c(Cl)c1)CC(O)(Cn1cncn1)c1ccc(F)cc1F", "result": "4 µg/mL"}
{"compound": "O=C1S/C(=C\\c2ccco2)C(=O)N1CC(O)(Cn1nccn1)c1ccc(F)cc1F", "strain": "CNCYP51", "result": "1.16 µg/mL"}
{"compound": "O=C(CC1=Nc2ccccc2C1)OC1CCN(CC(O)(Cn2cncn2)c2ccc(F)cc2F)CC1", "strain": "0306392", "read by": "broth dilution", "result": "0.032 µM"}
{"compound": "O=C1S/C(=C\\c2ccc3ccccc3n2)C(=O)N1CC(O)(Cn1nccn1)c1ccc(F)cc1F", "strain": "CNCYP51", "result": "2.21 µg/mL"}
{"compound": "CCCCN(Cc1cn(Cc2ccc([N+](=O)[O-])cc2)nn1)CC(O)(Cn1cncn1)c1ccc(F)cc1F", "result": "4 µg/mL"}
{"compound": "O=C1S/C(=C\\c2cccs2)C(=O)N1CC(O)(Cn1nccn1)c1ccc(F)cc1F", "strain": "CNCYP51", "result": "2.23 µg/mL"}
{"compound": "CN(CC(=O)Nc1ccccc1)CC(O)(Cn1cncn1)c1ccc(F)cc1F", "result": "16 µg/mL"}
{"compound": "Cc1ccc(-c2c3c(N)c4c(nc3nc3c2c(C)nn3-c2ccccc2)CCC4)cc1", "strain": "CCC 124", "read by": "broth dilution / absorbance", "result": "62.5 µg/mL"}
{"compound": "O=C(CCl)OC1CCN(CC(O)(Cn2cncn2)c2ccc(F)cc2F)CC1", "strain": "0306392", "read by": "broth dilution", "result": "9.66 µM"}
{"compound": "CCC(C)/C=C1\\SC(=O)N(CC(O)(Cn2nccn2)c2ccc(F)cc2F)C1=O", "strain": "CNCYP51", "result": "2.46 µg/mL"}
{"compound": "Cc1ccc(-c2c3c(N)c4c(nc3nc3c2c(C)nn3-c2ccccc2)CCCC4)cc1", "strain": "CCC 124", "read by": "broth dilution / absorbance", "result": "31.2 µg/mL"}
{"compound": "O=C1S/C(=C\\c2cccnc2)C(=O)N1CC(O)(Cn1nccn1)c1ccc(F)cc1F", "strain": "CNCYP51", "result": "1.13 µg/mL"}
{"compound": "CCCCN(Cc1cn(Cc2ccc(F)cc2)nn1)CC(O)(Cn1cncn1)c1ccc(F)cc1F", "result": "0.25 µg/mL"}
{"compound": "COc1ccc(/C=C/C(=O)OC2CCN(CC(O)(Cn3cncn3)c3ccc(F)cc3F)CC2)cc1", "strain": "0306392", "read by": "broth dilution", "result": "0.125 µM"}
{"compound": "O=C1S/C(=C\\c2ccoc2)C(=O)N1CC(O)(Cn1nccn1)c1ccc(F)cc1F", "strain": "CNCYP51", "result": "1.16 µg/mL"}
{"compound": "CCCCN(Cc1cn(Cc2ccc(Cl)cc2)nn1)CC(O)(Cn1cncn1)c1ccc(F)cc1F", "result": "<0.125 µg/mL"}
{"compound": "CC(C)(C)C(=O)OC1CCN(CC(O)(Cn2cncn2)c2ccc(F)cc2F)CC1", "strain": "0306392", "read by": "broth dilution", "result": "0.592 µM"}
{"compound": "CCCCN(Cc1cn(Cc2cccc(F)c2)nn1)CC(O)(Cn1cncn1)c1ccc(F)cc1F", "result": "0.25 µg/mL"}
{"compound": "O=C1S/C(=C\\c2ccc(F)cc2)C(=O)N1CC(O)(Cn1nccn1)c1ccc(F)cc1F", "strain": "CNCYP51", "result": "0.54 µg/mL"}

The last 2 rows once more:

CCCCN(Cc1cn(Cc2cccc(F)c2)nn1)CC(O)(Cn1cncn1)c1ccc(F)cc1F ; result: 0.25 µg/mL
O=C1S/C(=C\c2ccc(F)cc2)C(=O)N1CC(O)(Cn1nccn1)c1ccc(F)cc1F ; strain: CNCYP51 ; result: 0.54 µg/mL

Conditions beyond the fields shown may differ between rows.